The results in this text go back to article PMC2828546, “Screening-based discovery of drug-like O-GlcNAcase inhibitor scaffolds” (Febs Letters, 2010).

The chains behind the UniProt entries cited, without tags or fusion partners. Residues count along the entry.
UniProt Q0TR53, 31-624 limits assumed: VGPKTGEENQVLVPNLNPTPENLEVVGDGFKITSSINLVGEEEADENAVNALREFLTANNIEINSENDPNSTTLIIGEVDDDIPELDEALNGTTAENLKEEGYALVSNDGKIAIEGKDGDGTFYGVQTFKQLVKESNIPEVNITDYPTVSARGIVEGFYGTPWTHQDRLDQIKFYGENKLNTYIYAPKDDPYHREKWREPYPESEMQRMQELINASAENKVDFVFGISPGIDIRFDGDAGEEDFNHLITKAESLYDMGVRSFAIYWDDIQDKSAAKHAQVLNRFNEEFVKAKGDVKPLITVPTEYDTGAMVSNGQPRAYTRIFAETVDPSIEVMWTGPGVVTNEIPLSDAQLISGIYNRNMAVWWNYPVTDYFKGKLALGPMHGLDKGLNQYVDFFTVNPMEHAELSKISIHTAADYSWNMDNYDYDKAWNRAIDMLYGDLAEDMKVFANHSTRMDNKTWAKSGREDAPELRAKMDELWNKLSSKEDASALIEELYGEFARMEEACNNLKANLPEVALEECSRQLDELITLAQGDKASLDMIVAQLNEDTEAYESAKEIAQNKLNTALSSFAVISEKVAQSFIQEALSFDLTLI

The target in assay [1] is T1, CpOGA (Clostridium perfringens, UniProt Q0TR53). The experiment in a line: biochemical.
The target in assay [2] is T1, CpOGA. The experiment in a line: biochemical. It is filed as biochemical.

Turning to `CNc1ncnc2nc[nH]c12` [N^6-methyladenine], the IC50 against CpOGA [1] turned out to be 21 ± 4 µM. On CpOGA [2], affinity was put at a Ki of 14 ± 1 µM and the “inhibition mode against CpOGA” value was “compete for binding to the same CpOGA active site”.

The term IC50 denotes the concentration that gives 50% inhibition. Low values mean higher potency, high ones lower potency. The term Ki denotes the equilibrium dissociation constant of an inhibitor or competing ligand from its target. Low values mean higher affinity, high ones lower affinity.
